Experimental data published in paper PMC13630248 (PLOS Biology, 2026).

B1: V1WT_06 IgG (antibody, V domains shown)
VH: EVQLVQSGAEVKKPGASVKVSCKASGYTFSSHGISWVRQAPGQGLEWMGWISTYNGNTNSAQNLQGRVTMTADTSTSTAYMELRSLRSDDTAVYYCARGPWGYCSGTSCYYWTPDNPAYSYHGMDVWGQGTTVTVSS
VL: not shown
notes: copies: 2 + 2
B2: V1WT_41 IgG (antibody, V domains shown)
VH: QVQLQESGPGLVKPSETVSVTCTVSGGSITRSNYYWGWIRQPPGKGLEWIGSIFYNGNTNYNPSLKSRLTISVDTSKNQFSLKLSSVTAADTAVYYCARTAPYYYDRSGYYQKEEYFQRWGQGTLVTVSS
VL: EIVMTQSPSTLSASVGDRVTITCRASQSISTWLAWYQQKPGKAPNLLIYQASSLESGVPSRFSGSGSGTEFTLTISSLQPDDFATYYCQQYNNYPRTFGQGTKLEIK
notes: copies: 2 + 2
B3: VA14_26 IgG (antibody, V domains shown)
VH: QVQLQQWGAGLLKPSDTLSLTCGISGGPFSGYYWSWIRQPPGKGLEWLGEINHSGITTYNPSLKSRGTISVDTSKRQISLKLASVTAADTAVYYCARFAYGDYGWDYSSDMDVWGKGTTVTVSS
VL: DIQLTQSPSTLSASVGDRVTITCRASQSISTWLAWHQQIPGKAPKLLIYRASTLQSGVPSRFSGSGSGTEFTLTISSLQPDDFATYYCQQYYSVRTFGQGTKVDIK
notes: copies: 2 + 2

Legend:
[1] = target: RP3/2004 Spike, full-length, on the cell surface (bat coronavirus Rp3/2004, UniProt Q3I5J5); details: one partner purified
[2] = target: SARS-CoV-2 RBD (recombinant receptor binding domain of Spike) (SARS-CoV-2, UniProt P0DTC2); details: both partners purified

Binder | binding result [1] | fold increase in binding by ELISA, IgG over Fab [2] [fold]
B1 | binds | 1.3
B2 | binds | 
B3 | binds | 
